Measurements reported in paper PMC3766598 (BioMed Research International, 2013).

Tested on: Rhombeobin (LMR-47)
Conditions: optimal pH and temperature (standard assay 10 mM Tris-HCl pH 8.0, 10 mM CaCl2, 100 mM NaCl, 37°C); 0.0095-10 mM substrate

## N=C(N)NCCC[C@H](NC(=O)c1ccccc1)C(=O)Nc1ccc([N+](=O)[O-])cc1 [BApNA, N-benzoyl-L-arginine ρ-nitroanilide]
  Km: 800 µM
